These results are taken from patent US20250122455A1, “INTEGRATED SYSTEM FOR MULTIPLE CULTIVATIONS OF A BIOLOGICAL AGENT AND METHODS OF USE THEREOF” (The Hong Kong Polytechnic University, priority 2023, published 2025).

This test has as its system P. aeruginosa biofilms.

Like-named read-outs stand apart in the source and are kept apart here. This is a selection: effects in other tests are not listed, and their absence says nothing.

On to sodium nitroprusside dihydrate, for which the Induced biofilm dispersal entry runs as follows: (ΔbdlA/plac-bdlA complementation strain, FIG. 13B) “could undergo induced biofilm dispersal”; (ΔfliM/plac-fliM complementation strain, FIG. 14B) “could undergo induced biofilm dispersal”.
